For the assay, the target named is full-length human PlexinC1 (residues 1–1568), purified, human, O60486 35-1568.

Take “A39R (residues 15–399) from ectromelia virus, His8-tagged N-glycosylated (3 consensus motifs of N-glycosylation)”: the stoichiometry N (a39r per plexinc1 (2:2)) turned out to be 1.
